Assay results published in article PMC7717600, “Novel [(N-alkyl-3-indolylmethylene)hydrazono]oxindoles arrest cell cycle and induce cell apoptosis by inhibiting CDK2 and Bcl-2: synthesis, biological evaluation and in silico studies” (Journal of Enzyme Inhibition and Medicinal Chemistry, 2020).

test system: panel of 59 human cancer cell lines; assay: NCI screening, panel and subpanel summaries; conditions: cell lines with GI % higher than 10% at 10 μM

In order of falling “Sensitive cell lines no.” value:
1. C=CCn1cc(C=NN=C2C(=O)Nc3ccccc32)c2ccccc21 [Compound 10a]  27
2. CCCn1cc(/C=N/N=C2\C(=O)Nc3ccc(OC(F)(F)F)cc32)c2ccccc21 [Compound 8b]  26
3. C=CCn1cc(C=NN=C2C(=O)Nc3c(F)cccc32)c2ccccc21 [Compound 10c]  20
4. CCCn1cc(C=NN=C2C(=O)Nc3ccc([N+](=O)[O-])cc32)c2ccccc21 [Compound 8c]  14
5. CC(C)n1cc(C=NN=C2C(=O)Nc3ccccc32)c2ccccc21 [Compound 9]  12
6. C=CCn1cc(C=NN=C2C(=O)Nc3ccc(Cl)cc32)c2ccccc21 [Compound 10d]  12
